Compound potency records, mixed from different reports. Data source: NIAID ChemDB in PubChem.

Shared fields: host cell toxicity; endpoint: CC50

Rows are shuffled and stem from different studies. a–b is a range or a potency band. An empty or dashed field is not shown. CCn: concentration that lowers growth or viability of the cells by n%.

compound | cell line | read by | value
COc1ccc(I)cc1-c1oc2ccccc2c(=O)c1O | CHO | MTS / absorbance | 25.5 µM
CSc1nsc(-c2ccc(OCCCOc3ccc(C#N)cc3)cc2)c1C#N | HEP-2/L-929/VERO |  | 2 µM
COc1ccc(Br)cc1-c1cc(=O)c2c(O)cccc2o1 | CHO | MTS / absorbance | 25.5 µM
O=Cc1coc2c(Br)cc(Br)cc2c1=O | HTLV-I-bearing MT-4 | MTT | 92.3 µg/mL
Nc1nc2c(ncn2COC2CCP(=O)([O-])OC2)c(=O)[nH]1 | GPE |  | 112 µg/mL
CCOC(=O)CCCCCOc1cccc(CN(C(=O)c2ccc(-c3cccc(OC(C)C)c3)cc2)C(C)C)c1 | HEK 293 |  | >20 µM
CSc1nsc(-c2ccc(OCCOc3ccc([N+](=O)[O-])cc3)cc2)c1C#N | HEP-2/L-929/VERO |  | 1 µM
COc1cc(C)ccc1OCCOc1ccccc1F | HEK 293 |  | >20 µM
Nc1nc2c(ncn2COCCO)c(=O)[nH]1 | MA-104 |  | >3000 µM
CCOC(=O)CCCCCOc1cccc(CN(C(=O)c2ccc(-c3cccc(C(C)=O)c3)cc2)C(C)C)c1 | BJ |  | >20 µM
Cc1ccc[n+]([O-])c1S(=O)(=O)Cc1ccccc1 | HEL |  | 28 µg/mL
COC1=CC(=O)c2c(O)c3c(c(O)c2C1=O)CC(C)(O)OC3 | Panc-1 | MTT | 2.7 µg/mL
Cc1ccc(CS(=O)c2cccc[n+]2[O-])cc1C | HEL |  | 14 µg/mL
O=Cc1coc2ccc(F)cc2c1=O | HTLV-I-bearing MT-4 | MTT | 17 µg/mL
COc1ccc(Br)cc1-c1oc2cccc(OC)c2c(=O)c1O | CHO | MTS / absorbance | 25.5 µM
CCOC(=O)c1cc(C(=O)N2CCOCC2)n2ccc(C(=O)NCc3ccccn3)cc12 | H9 | MTT | 236.8 µM
O=S(=O)(Cc1ccccc1Cl)c1cccc[n+]1[O-] | HEL |  | 19 µg/mL
Cc1c(C(=O)Nc2ccc(F)c(C#N)c2)c(C)n(C)c1C(=O)C(=O)Nc1cccc(B(O)O)c1 | HepG2 | MTT | >30 µM
Cc1ccc(C)c(CSc2c(Cl)ccc[n+]2[O-])c1 | CEM | cell count | 42 µg/mL
O=c1ccoc2ccccc12 | HTLV-I-bearing MT-4 | MTT | 146.2 µg/mL
Cc1c(C(=O)Nc2cccc(Cl)n2)c(C)n(C)c1C(=O)C(=O)N[C@H](C)C(F)(F)F | HepG2 | MTT | >30 µM
CSc1nsc(-c2ccc(OCCCc3ccccc3)cc2)c1C#N | HELA-OHIO |  | >50 µM
COc1ccc2nc3n[nH]c(C)c3c(Cl)c2c1 | FS-85 |  | >100 µg/mL
CCOC(=O)c1cc(C(=O)c2ccccc2)n2ccc(C(=O)NCc3ccccn3)cc12 | H9 | MTT | 151 µM
COc1ccc(Cl)cc1Nc1ncnc2c1cnn2-c1ccccc1Cl | HUH 9B |  | >40 µM
Nc1ccn([C@@H]2CS[C@H](CO)O2)c(=O)n1 | OM-10.1 |  | >20 µM
COc1ccc(Br)cc1-c1oc2ccccc2c(=O)c1O | CHO | MTS / absorbance | 25.5 µM
O=c1cc(Nc2ccc(-c3ccccc3)cc2)c2cccnc2n1O | HOS | ATP / luminescence | 1.54 µM
Nc1nc2c(ncn2[C@H]2CC[C@@H](CO)O2)c(=O)[nH]1 | Primary duck hepatocytes |  | >200 µM
Cc1ccc[n+]([O-])c1S(=O)(=O)C(C)c1cccc([N+](=O)[O-])c1C | CEM | cell count | 96 µg/mL
CSc1nsc(-c2ccc(OCCc3ccccc3)cc2)c1C#N | HEP-2/L-929/VERO |  | >20 µM
O=[N+]([O-])c1ccc(SCc2ccccc2)nc1 | HEL |  | >20 µg/mL
COC(=O)c1c(N)c2cccnc2n(O)c1=O | HOS | ATP / luminescence | 22.4 µM
NN1CC[N+]2(CC1)CC[N+]1(CCN(N)CC1)CC2 | L929 |  | 113.7 µg/mL
CC1COc2c(N3CCN(C)CC3)c(F)cc3c(=O)c(C(=O)O)cn1c23 | SK-K |  | 375 µg/mL
CCOC(=O)c1cc(C(=O)c2cccc(N)c2)n2ccc(C(=O)NCc3ccccn3)cc12 | H9 | MTT | 133.5 µM
CCOC(=O)c1cc2ccccc2oc1=O | HTLV-I-bearing MT-4 | MTT | 439.9 µg/mL
CCCNCc1cccc(OCCCCCC(=O)OCC)c1 | HEK 293 |  | >20 µM
Cc1cccc(CS(=O)(=O)c2cccc[n+]2[O-])c1 | HEL |  | 23 µg/mL
CC(C)C[C@@H]1NC(=O)[C@H](Cc2c[nH]c3ccccc23)NC(=O)[C@@H](CCCN)NC(=O)[C@H](CC(=O)NCc2ccccc2)NC(=O)[C@H](C(C)C)NC(=O)[C@@H](CC(C)C)NC1=O | Hep2G | luminescence | 50.1 µM
CC(C)c1ccc2occ(C=O)c(=O)c2c1 | HTLV-I-bearing MT-4 | MTT | 10.6 µg/mL
Nc1nc2c(ncn2O[C@H]2CO[C@@H](CO)O2)c(=O)[nH]1 | 2.2.15 |  | >100 µg/mL
CC(C)[C@H](NC(=O)[C@H](NCc1ccc(Cl)cc1)[C@H](O)[C@H](Cc1ccccc1)NC(=O)[C@@H](NC(=O)OCc1ccccc1)C(C)(C)C)C(=O)NCc1nc2ccccc2[nH]1 | U-937 |  | 4.5 µM
CCCCCCCC(c1cc(C)ccc1C)S(=O)(=O)c1cccc[n+]1[O-] | HEL |  | >50 µg/mL
Cc1c(C(=O)Nc2cc(Cl)cc(Cl)c2)c(C)n(C)c1C(=O)C(=O)N[C@H](C)C(F)(F)F | HepG2 | MTT | 5–30 µM
Cc1cc2occ(C=O)c(=O)c2cc1Cl | HTLV-I-bearing MT-4 | MTT | 19.2 µg/mL
CCOC(=O)c1cc(C(=O)c2ccc(N)cc2)n2ccc(C(=O)NCc3ccccn3)cc12 | H9 | MTT | 159.5 µM
COC(=O)c1cc(NC(=O)c2c(C)c(C(=O)C(=O)NC(C)(C)C)n(C)c2C)ccc1F | HepG2 | MTT | >30 µM
CCOC(=O)CCCCCOc1cccc(C=O)c1 | RAJI |  | >20 µM
CCc1ccc(CCN=C2NC(=O)/C(=C/c3ccc(-c4ccc(C(=O)O)c(O)c4)o3)S2)cc1 | HT-29 | MTT | 26 µM
N#C/C(=C/c1c(Cl)cccc1Cl)S(=O)(=O)c1cccc[n+]1[O-] | HEL |  | 3.4 µg/mL
CC(=O)c1cc2ccccc2oc1=O | HTLV-I-bearing MT-4 | MTT | 395.5 µg/mL
O=[N+]([O-])c1ccc[n+]([O-])c1SCc1ccccc1 | CEM | cell count | 31 µg/mL
CO/N=C(\N)c1cccc(COc2ccc(/C(N)=N/OC)cc2I)c1 | L6 rat myoblasts | resazurin | 127 µM
Nc1ncnc2c1ncn2O[C@@H]1CO[C@@H](CO)O1 | 2.2.15 |  | >100 µg/mL
CCn1cc(C(=O)O)c(=O)c2cc(F)c(N3CCN(c4ccccc4OC)CC3)c(OC(F)F)c21 | OM-10.1 |  | 9.3 µM
O=c1[nH]cnc2c1ncn2O[C@@H]1CO[C@@H](CO)O1 | VERO |  | >100 µg/mL
O=C1NN(c2ccc(Br)cc2)C(=O)C1Cc1ccc([N+](=O)[O-])o1 | MDM |  | 40 µM
CC(C)[C@H](NC(=O)OCc1ccccc1)C(=O)N[C@@H](Cc1ccccc1)[C@@H](O)[C@@H](NCc1ccccc1)C(=O)N[C@H](C(=O)NCc1nc2ccccc2[nH]1)C(C)C | U-937 |  | 6.1 µM
Cc1ccc(CSc2ccccn2)cc1C | HEL |  | 5.6 µg/mL
COc1ccc(Cl)cc1C1CC(=O)c2ccccc2O1 | CHO | MTS / absorbance | 25.5 µM
Cc1c(C(=O)NCc2noc(C(F)(F)F)n2)c(C)n(C)c1C(=O)C(=O)NC(C)(C)C | HepG2 | MTT | >30 µM
CC[C@H](C)/C=C(C)/C=C/C(=O)CC1=C(C=O)C(O)C(C)C(O)C1 | J774 | visual reading | 200 µg/mL
O=C1NC(=Nc2ccc(F)c(Cl)c2)S/C1=C\c1ccc(-c2ccc(C(=O)O)c(O)c2)o1 | Ramos | MTT | 3.1 µM
CCOC(=O)CC(=O)NCC(OCC)(OCC)c1ccc2c(c1)OCO2 | RAJI |  | <7.5 µM
C=CCOCc1cn(C2CCON2C(=O)OCc2ccccc2)c(=O)[nH]c1=O | MOLT-3 | MTS | >1000 µM
CCOC(=O)c1cc(C(=O)NCc2cccnc2)n2ccc(C(=O)c3ccco3)cc12 | H9 | MTT | 233.5 µM
CSc1nsc(-c2ccc(OCCCOc3ccccc3)cc2)c1C#N | HELA-OHIO |  | >50 µM
Cc1ccnc2c1NC(=O)c1cccnc1N2C1CC1 | CEM-GFP | MTS | 980 µM
COc1ccc(/C=C(/C#N)Sc2cccc[n+]2[O-])cc1 | HEL |  | 35 µg/mL
C/C(=N\NC(=O)c1ccc([N+](=O)[O-])cc1)c1cccc(/C(C)=N/NC(=O)c2ccc([N+](=O)[O-])cc2)n1 | Jurkat cells | MTT | >100 µM
O=C(Nc1ccc(OCc2ccccn2)cc1)Nc1ncnc2c1cnn2-c1ccccc1Cl | HUH 9B |  | 29 µM
OC[C@@H]1OC[C@@H](On2cnc3c(Cl)ncnc32)O1 | VERO |  | >100 µg/mL
[N-]=[N+]=N[C@]1(CO)O[C@@H](n2ccc(N)nc2=O)[C@@H](F)[C@@H]1O | Huh-7 (cell line 2209-23) |  | >100 µM
CCOC(=O)c1cc(C(=O)c2cccs2)n2ccc(C(=O)NCc3ccccn3)cc12 | H9 | MTT | 53.4 µM
O=C(OCc1ccccc1)N1OCCC1n1cc(COCc2ccccc2)c(=O)[nH]c1=O | CEM-GFP | MTS | 1127 µM
CC(C)[C@H](NC(=O)OCc1ccccc1)C(=O)N[C@@H](Cc1ccccc1)[C@@H](O)[C@@H](NCc1ccc(Br)cc1)C(=O)N[C@H](C(=O)NCc1nc2ccccc2[nH]1)C(C)C | U-937 |  | 5.8 µM
Cc1ccc(C)c(C(Cl)S(=O)(=O)c2ccccn2)c1 | HEL |  | 38 µg/mL
Cc1nc(N2CC[N+]3(CC2)CC[N+]2(CCN(c4nc(C)[nH]c(=O)c4[N+](=O)[O-])CC2)CC3)c([N+](=O)[O-])c(=O)[nH]1 | GMK |  | >331.4 µg/mL
O=C1N=C(N2CCOCC2)S/C1=C\c1ccc(-c2ccc(C(=O)O)c(O)c2)o1 | Ramos | MTT | 3.14 µM
Cc1ccc(-n2sc3ccccc3c2=O)cc1 | MDM |  | >90 µM
O=S(=O)(Cc1ccccc1)c1ncccc1O | HEL |  | >20 µg/mL
O=C(O)c1cc2ccccc2oc1=O | HTLV-I-bearing MT-4 | MTT | 612.9 µg/mL
CCOC(=O)CCCCCOc1cccc(CN(C(=O)c2ccc(-c3cc4ccccc4n3S(=O)(=O)c3ccccc3)cc2)C(C)C)c1 | RAJI |  | >20 µM
COc1ccc(CSc2cc(C(C)(C)C)cc[n+]2[O-])cc1 | HEL |  | 48 µg/mL
CCCCc1ccc(Nc2ncnc3c2cnn3-c2ccccc2Cl)cc1 | HUH 9B |  | >50 µM
Cc1nc(N2CC[N+]3(CC2)CC[N+]2(CCNCC2)CC3)c([N+](=O)[O-])c(N2CC[N+]3(CC2)CC[N+]2(CCNCC2)CC3)n1 | K562 |  | >228.7 µg/mL
Cc1c(C(=O)Nc2ccc(F)c(C#N)c2)c(C)n(C)c1C(=O)C(=O)NC(C)(C)C | HepG2 | MTT | >30 µM
C#CCOCc1cn(C2CCON2C(=O)OCc2ccccc2)c(=O)[nH]c1=O | CEM-GFP | MTS | 1053 µM
OC[C@H]1O[C@@H](On2cnc3c(Cl)ncnc32)CS1 | 2.2.15 |  | >100 µg/mL
Cc1ccc(C(C)S(=O)c2cccc[n+]2[O-])cc1 | CEM | cell count | 0.59 µg/mL
Cc1cc(NC(=O)c2c(C)c(C(=O)C(=O)NC3CCc4nnn(C)c4C3)n(C)c2C)ccc1F | HepG2 | MTT | >30 µM
O=c1[nH]cnc2c1ncn2O[C@@H]1CS[C@@H](CO)O1 | 2.2.15 |  | >100 µg/mL
COC1=CC(=O)c2c(O)c(C)c(CC(C)=O)c(O)c2C1=O | Panc-1 | MTT | 2 µg/mL
CSc1nsc(-c2ccc(OCCCCOc3ccccc3)cc2)c1C#N | HELA-OHIO |  | >50 µM
CCC1(NC(=O)C(=O)c2c(C)c(C(=O)Nc3ccc(F)c(C)c3)c(C)n2C)CCN(c2cnccn2)CC1 | HepG2 | MTT | >30 µM

6 of the rows above, restated:

compound,cell line,read by,value
Nc1nc2c(ncn2COC2CCP(=O)([O-])OC2)c(=O)[nH]1,GPE,,112 µg/mL
Cc1cc2occ(C=O)c(=O)c2cc1Cl,HTLV-I-bearing MT-4,MTT,19.2 µg/mL
COc1ccc(Cl)cc1Nc1ncnc2c1cnn2-c1ccccc1Cl,HUH 9B,,>40 µM
O=S(=O)(Cc1ccccc1)c1ncccc1O,HEL,,>20 µg/mL
Cc1ccc(-n2sc3ccccc3c2=O)cc1,MDM,,>90 µM
CCOC(=O)CC(=O)NCC(OCC)(OCC)c1ccc2c(c1)OCO2,RAJI,,<7.5 µM